Laboratory results taken from patent US10463688B2, “Nylon-3 polymers active against Clostridium difficile” (priority 2015, dated 2019).
Values after ≈ are worked out from the molar mass of the structure shown.

Legend:
[1] = system: C. difficile vegetative cells (630Δerm strain); settings: MH broth, 24 h at 37° C., anaerobic
[2] = system: C. difficile vegetative cells (630Δerm strain); test: microbe, parasite or virus in culture; settings: Clostridioides difficile, 24 h, read-out: MIC, minimum inhibitory concentration for vegetative cell growth

Compound	MIC, minimum inhibitory concentration for vegetative cell growth [1]	MIC [2]
CC[C@H](C)[C@H](NC(=O)[C@H](CCCCN)NC(=O)[C@H](CCC(=O)O)NC(=O)[C@H](CCCCN)NC(=O)[C@H](CO)NC(=O)[C@H](CCCCN)NC(=O)[C@H](CCCNC(=N)N)NC(=O)[C@H](Cc1ccccc1)NC(=O)[C@H](Cc1ccccc1)NC(=O)[C@H](CC(=O)O)NC(=O)CNC(=O)[C@H](CC(C)C)NC(=O)[C@@H](N)CC(C)C)C(=O)NCC(=O)N[C@@H](CCCCN)C(=O)N[C@@H](CCC(=O)O)C(=O)N[C@@H](Cc1ccccc1)C(=O)N[C@@H](CCCCN)C(=O)N[C@@H](CCCNC(=N)N)C(=O)N[C@H](C(=O)N[C@H](C(=O)N[C@@H](CCC(N)=O)C(=O)N[C@@H](CCCNC(=N)N)C(=O)N[C@H](C(=O)N[C@@H](CCCCN)C(=O)N[C@@H](CC(=O)O)C(=O)N[C@@H](Cc1ccccc1)C(=O)N[C@@H](CC(C)C)C(=O)N[C@@H](CCCNC(=N)N)C(=O)N[C@@H](CC(N)=O)C(=O)N[C@@H](CC(C)C)C(=O)N[C@H](C(=O)N1CCC[C@H]1C(=O)N[C@@H](CCCNC(=N)N)C(=O)N[C@H](C(=O)N[C@@H](CCC(=O)O)C(=O)N[C@@H](CO)C(=O)O)[C@@H](C)O)C(C)C)[C@@H](C)CC)C(C)C)[C@@H](C)CC [LL-37]	10 µg/mL	–
CN[C@H](CC(C)C)C(=O)N[C@H]1C(=O)N[C@@H](CC(N)=O)C(=O)N[C@H]2C(=O)N[C@H]3C(=O)N[C@H](C(=O)N[C@H](C(=O)O)c4cc(O)cc(O)c4-c4cc3ccc4O)[C@H](O)c3ccc(c(Cl)c3)Oc3cc2cc(c3O[C@@H]2O[C@H](CO)[C@@H](O)[C@H](O)[C@H]2O[C@H]2C[C@](C)(N)[C@H](O)[C@H](C)O2)Oc2ccc(cc2Cl)[C@H]1O [vancomycin]	–	1 µg/mL (≈ 0.69 µM)
